{"source": "paper PMC11077646", "about": "(Advanced Science, 2024)", "key": {"[1]": {"target": "T1, human ferritin heavy chain (human)", "T1 construct": "human ferritin heavy chain (FH); gene amplified by PCR from cDNA of human HT29 tumor cells; ≈21.1 kDa printed; The subunit as expressed alone or together with FL in E. coli; alone it forms the 24-subunit cage FHn-100 (labelled form: m3); The vector pET21a is named but no tag is stated; also called FH; source: E. coli BL21(DE3), purified (heat 60 °C, Superose 6 Increase SEC)", "experiment": "SEC; subunits expressed alone or co-expressed in E. coli BL21(DE3) and assembled in the cells; soluble fraction heated at 60 °C for 15 min, Superose 6 Increase column; subunit ratios by SDS-PAGE; cages seen by TEM (negative stain)", "settings": "both partners purified"}, "[2]": {"target": "the molecule itself", "experiment": "SEC; subunits expressed alone or co-expressed in E. coli BL21(DE3) and assembled in the cells; soluble fraction heated at 60 °C for 15 min, Superose 6 Increase column; subunit ratios by SDS-PAGE; cages seen by TEM (negative stain)"}}, "data": [{"binder": "human ferritin light chain (natural protein, UniProt P02792 1-175, looked up, human ferritin light chain (FL); gene amplified by PCR from cDNA of human HT29 tumor cells; ≈19.9 kDa printed; The subunit as expressed alone or together with FH in E. coli; alone it forms the 24-subunit cage FHn-0 (labelled form: m7); also called FL; source: E. coli BL21(DE3), purified (heat 60 °C, Superose 6 Increase SEC)) MSSQIRQNYSTDVEAAVNSLVNLYLQASYTYLSLGFYFDRDDVALEGVSHFFRELAEEKREGYERLLKMQNQRGGRALFQDIKKPAEDEWGKTPDAMKAAMALEKKLNQALLDLHALGSARTDPHLCDFLETHFLDEEVKLIKKMGDHLTNLHRLGGPEAGLGEYLFERLTLKHD", "values": [{"measurement": "binding result", "setting": "[1]", "value": "binds"}, {"measurement": "stoichiometry N", "setting": "[2]", "value": 24, "unit": "subunits"}]}]}
